The series can be described thus: general procedure: Fmoc solid-phase peptide synthesis; DMBHA resin; DIPCDI-HOBt. The settings on record: whole synthesis, based on the protecting group-protected peptide (A) resin, scale 0.2 mmole.

Where no end group is shown, it is not given here.

On to “RWCYRKCYRGICYRKCR-NH2 (cysteine pairing not given here)”, for which the isolated yield is on record as 27%.

These data come from patent US5571892A (priority 1990, dated 1996).
